Record: PubChem BioAssay AID1259414 (Drosophila RNAi Screening Center, 2018)

Purpose: 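Fly genes that alter Wolbachia amount inside host cells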 (primary screen)
Cell system: Drosophila JW18 cells infected with Wolbachia
Reagents: long dsRNA against Drosophila genes, 0.25 µg dsRNA per well of a 384-well plate
Timing: 5 days
Treatment: cells persistently infected with Wolbachia before knock-down; no added drug
Measurement: 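Imaged fluorescence in situ signal for Wolbachia 23S rRNA per DAPI-counted host cell, given as a robust z-score within each plate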
Direction: Wolbachia per cell robust z: higher = more Wolbachia per host cell than the plate typical
Rule for the call: 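Hit when robust z is 1.5 or more, or -1.5 or less, in at least two of three replicates; excludes dsRNAs with several or no targets, genes not expressed in JW18 and well A1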
In all, the deposit lists about 24,000 reagents; shown is a random part of those with a known target gene and a result. Over the whole deposit, about 1,210 (5%) were called active. 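Inactive calls also include excluded dsRNAs with several or no targets, genes unexpressed in JW18, and well A1, regardless of score.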 Reagents against one gene are numbered here. Names joined by + are all predicted targets of the reagent.

With knock-down of EbpII #1, the screen gave Wolbachia per cell robust z, rep 1 = -1.7; Wolbachia per cell robust z, rep 2 = -1.83; Wolbachia per cell robust z, rep 3 = -0.611; inactive.
With knock-down of EbpII #2 the results were Wolbachia per cell robust z, rep 1 = 0.166; Wolbachia per cell robust z, rep 2 = 0.245; Wolbachia per cell robust z, rep 3 = 0.512; inactive.
EbpII #3 scored Wolbachia per cell robust z, rep 1 = -1.13; Wolbachia per cell robust z, rep 2 = 0.141; Wolbachia per cell robust z, rep 3 = -0.415; inactive.
Silencing of MKP-4 #1 gave: Wolbachia per cell robust z, rep 1 = -1.72; Wolbachia per cell robust z, rep 2 = -1.3; Wolbachia per cell robust z, rep 3 = -0.275; inactive.
With knock-down of MKP-4 #2, the record shows Wolbachia per cell robust z, rep 1 = 1.11; Wolbachia per cell robust z, rep 2 = -0.617; Wolbachia per cell robust z, rep 3 = -11.3; inactive.
Silencing of CG3288 gave: Wolbachia per cell robust z, rep 1 = 0.479; Wolbachia per cell robust z, rep 2 = -0.243; Wolbachia per cell robust z, rep 3 = -0.885; inactive.
With knock-down of CG16956, the record shows Wolbachia per cell robust z, rep 1 = -0.163; Wolbachia per cell robust z, rep 2 = -0.156; Wolbachia per cell robust z, rep 3 = -0.692; inactive.

2 entries already listed, arranged by “Wolbachia per cell robust z, rep 1”, descending.
MKP-4 #2: Wolbachia per cell robust z, rep 1 = 1.11; Wolbachia per cell robust z, rep 2 = -0.617; Wolbachia per cell robust z, rep 3 = -11.3; activity call = inactive
CG3288: Wolbachia per cell robust z, rep 1 = 0.479; Wolbachia per cell robust z, rep 2 = -0.243; Wolbachia per cell robust z, rep 3 = -0.885; activity call = inactive

More reagents follow:
CG12491 + CG34105 showed Wolbachia per cell robust z, rep 1 = 0.788; Wolbachia per cell robust z, rep 2 = -0.0489; Wolbachia per cell robust z, rep 3 = 0.113; inactive.
For CG34025 the deposit lists Wolbachia per cell robust z, rep 1 = 0.419; Wolbachia per cell robust z, rep 2 = -0.248; Wolbachia per cell robust z, rep 3 = 0.828; inactive.
With knock-down of CG32371 #1, the record shows Wolbachia per cell robust z, rep 1 = 0.828; Wolbachia per cell robust z, rep 2 = 0.773; Wolbachia per cell robust z, rep 3 = 1.41; inactive.
For CG32371 #2 the deposit lists Wolbachia per cell robust z, rep 1 = -1.63; Wolbachia per cell robust z, rep 2 = 0.738; Wolbachia per cell robust z, rep 3 = -0.642; inactive.
CG30291 scored Wolbachia per cell robust z, rep 1 = -1.53; Wolbachia per cell robust z, rep 2 = -3.65; Wolbachia per cell robust z, rep 3 = -5.8; active.
